Earlier results in patent US20070027088A1 (priority 2003, published 2007).

Tests used:
a large number of toxins = settings: cited from earlier work
[1] = system: three separate and antigenically distinct toxins; settings: mouse, in vivo; cited from earlier work
MHC II molecule = settings: cited from earlier work

In the case of CMYGGVTEHEGN, the “inhibition of blastogenic properties of toxins” value (a large number of toxins) is listed as “inhibit blastogenic properties of a large number of toxins”, the “blocking of lethal effects of toxins” value [1] is listed as “block the lethal effects of three separate and antigenically distinct toxins” and the “binding to MHC II” value (MHC II molecule) is listed as “binds to a MHC II molecule”.
